Compound potency records, mixed from different reports. Data source: NIAID ChemDB in PubChem.

Shared fields: whole-cell or culture tests; species: Staphylococcus aureus; endpoint: MIC

Lines come from different laboratories, so protocols vary.

compound | strain or isolate | read by | value
COCN1OCC(N)C1=O | - | - | 2500 µM
Cc1c(N2CCCC2)c(F)cn2c(=O)c(C(=O)O)cc(C3CC3)c12 | NCTC10649 | - | 0.005 µg/mL
CCCCCCCCCCCCC(C(=O)O)c1ccccc1 | - | - | 200 µM
NC1CON(CCCO)C1=O | - | - | >2500 µM
CC(=O)CCN1CCN(c2c(Cl)cc3c(=O)c(C(=O)O)cn(C4CC4)c3c2F)CC1 | 1756 | - | 0.25 µg/mL
NC1CCN(c2nc3c(cc2F)c(=O)c(C(=O)O)cn3-c2ccc(F)cc2F)C1 | NCTC10649 | - | 0.1 µg/mL
CN(C)[C@@H]1C(=O)C(C(N)=O)=C(O)[C@@]2(O)C(=O)C3=C(O)c4c(O)c(NC(=O)CN5CCOCC5)cc(F)c4C[C@H]3C[C@@H]12 | 161-MRS tet | agar diffusion | 8 µg/mL
CC(C)c1c(O)c(C=O)cc2c1CC[C@H]1C(C)(C)CCC[C@]21C | - | - | 8 µg/mL
COC1=C[C@H]2C(C)(C)CCC[C@]2(C)c2ccc(O)c(C(C)C)c21 | Methicillin-resistant | - | 8 µg/mL
CO[C@H]1/C=C/O[C@@]2(C)Oc3c(C)c(O)c4c(=O)c(c5oc6cc(N7CCN(CC(C)C)CC7)cc(=O)c6nc5c4c3=C2O)NC(=O)/C(C)=C\C=C\[C@H](C)[C@H](O)[C@@H](C)[C@@H](O)[C@@H](C)[C@H](OC(C)=O)[C@@H]1C | ATCC 25923 | - | 0.0313 µg/mL
COc1ccc2c(c1C(C)C)C[C@H]1OC[C@@]23CCCC(C)(C)[C@H]13 | Methicillin-resistant | - | >32 µg/mL
COc1c(C(=O)O)cc2c(c1C(C)C)CC[C@H]1C(C)(C)CCC[C@]21C | - | - | 32 µg/mL
CCCN1CCN(c2cc(=O)c3nc4c(oc3c2)c2c(=O)c3c(O)c(C)c5c(c34)=C(O)[C@@](C)(O/C=C/[C@H](OC)[C@@H](C)[C@@H](OC(C)=O)[C@H](C)[C@H](O)[C@H](C)[C@@H](O)[C@@H](C)/C=C/C=C(/C)C(=O)N2)O5)CC1 | SMITH | - | 0.002 µg/mL
CN1CCN(c2c(Cl)cc3c(=O)c(C(=O)O)cn(C4CC4)c3c2F)CC1 | 133 | - | 0.25 µg/mL
Cc1c(N2CC3=CCCN[C@H]3C2)c(F)cn2c(=O)c(C(=O)O)cc(C3CC3)c12 | CG55 | - | 0.025 µg/mL
NC1CON(CC(=O)O)C1=O | - | - | >2500 µM
CCc1c(O)ccc2c1CC[C@H]1C(C)(C)CCC[C@]21C | - | - | 2 µg/mL
CCCCNC(=O)c1c(SSc2cccc(C(F)(F)F)c2C(=O)NCCCC)cccc1C(F)(F)F | ATCC 6538 | - | 50 µg/mL
CC(C)CCC[C@H](C)CC(=O)O | - | - | 100 µM
O=C(O)c1cn(C2CC2)c2c(Cl)c(N3CCNCC3)c(F)cc2c1=O | 133 | - | 0.06 µg/mL
CC1(C)CCC[C@]2(C)c3ccc(O)c(O)c3CC[C@@H]12 | - | - | 32 µg/mL
NC(=O)c1ccc(F)cc1SSc1cc(F)ccc1C(N)=O | ATCC 6538 | - | 2.5 µg/mL
CN1CCN(c2c(F)cc3c(=O)c(C(=O)O)cn(C4CC4)c3c2Cl)CC1 | 422 | - | 0.06 µg/mL
CCN1OCC(N)C1=O | - | - | >2500 µM
CC(C)c1cc2c(c(O)c1O)[C@@]1(C(=O)O)CCCC(C)(C)C1CC2 | - | - | 32 µg/mL
CCCCCCCC/C=C\CCCCCCCC(=O)O | - | - | 2000 µM
CC(C)(C)n1cc(C(=O)O)c(=O)c2cc(F)c(N3CCN(C4C=CCC4)CC3)cc21 | - | - | 0.06 µg/mL
CSCN1OCC(N)C1=O | - | - | >2500 µM
CC(C)c1c(O)ccc2c1[C@@H](O)C[C@H]1C(C)(C)CCC[C@]21C | Methicillin-resistant | - | >32 µg/mL
COC(=O)C(C)N1OCC(N)C1=O | - | - | >2500 µM
CC(C)c1c(O)ccc2c1C[C@@H](O)[C@H]1C(C)(C)CCC[C@]21C | Methicillin-resistant | - | 8 µg/mL
CC(C)c1c(O)ccc2c1CCC1C(C)(C)CCC[C@]21C | - | - | 2 µg/mL
CC(=O)Oc1ccc2c(c1C(C)C)C=C[C@H]1C(C)(C)CCC[C@]21C | Methicillin-resistant | - | >32 µg/mL
COc1cc2oc(=O)ccc2cc1CC(O)C(C)(C)O | MRSA | - | 250 µg/mL
CO/N=C(\C(=O)N[C@@H]1C(=O)N2C(C(=O)O)=C(COC(C)=O)CS[C@H]12)c1csc(N)n1 | ATCC 6538 | - | 1.5 µg/mL
O=C(O)c1cn(C2CC2)c2c(F)c(N3CCN(CCO)CC3)c(Cl)cc2c1=O | 133 | - | 0.25 µg/mL
COCCN1OCC(N)C1=O | - | - | >2500 µM
C[C@H]1C[C@H](N)CN1c1nc2c(cc1F)c(=O)c(C(=O)O)cn2-c1ccc(F)cc1F | NCTC10649 | - | 0.03 µg/mL
CCCCn1sc2cccc(F)c2c1=O | ATCC 6538 | - | 30 µg/mL
COc1cc2c(cc1C(C)C)CC[C@H]1C(C)(C)CCC[C@]21C | - | - | >32 µg/mL
CCCCNC(=O)c1cccc(F)c1SSc1c(F)cccc1C(=O)NCCCC | ATCC 6538 | - | 20 µg/mL
CC1CN(c2c(Cl)cc3c(=O)c(C(=O)O)cn(C4CC4)c3c2F)CCN1 | 133 | - | 0.25 µg/mL
CN(O)C(=O)CN1OCC(N)C1=O | - | - | >2500 µM
CC(C)c1cc2c(cc1O[C@@H]1O[C@H](CO)C(O[C@@H]3O[C@H](CO)[C@@H](O)[C@H](O)[C@H]3O)[C@H](O)[C@H]1O)[C@@]1(C)CCCC(C)(C)[C@@H]1CC2 | - | - | >32 µg/mL
CC1CN(c2c(Cl)cc3c(=O)c(C(=O)O)cn(C4CC4)c3c2F)CC(C)N1 | 1756 | - | 0.5 µg/mL
NC1CONC1=O | - | - | 200 µM
CC(C)c1cc2c(cc1O[C@@H]1O[C@H](CO)[C@H](O)[C@H](O)[C@H]1O)[C@@]1(C)CCCC(C)(C)[C@@H]1CC2 | - | - | >32 µg/mL

3 of the rows above, restated:

{"compound": "NC1CON(CCCO)C1=O", "value": ">2500 µM"}
{"compound": "COC(=O)C(C)N1OCC(N)C1=O", "value": ">2500 µM"}
{"compound": "CC(C)c1cc2c(c(O)c1O)[C@@]1(C(=O)O)CCCC(C)(C)C1CC2", "value": "32 µg/mL"}

Blank or dashed fields: not listed here.